Assay results taken from article PMC4450067 (PLoS Pathogens, 2015).

Tested on: G3BP-NTF2
Experiment: Analytical size exclusion chromatography (SEC) of G3BP-NTF2 with or without nsP3-25
Assay type: binding, human
Conditions: G3BP-NTF2 alone, pH 7
Description: Engagement of two G3BP molecules with each nsP3-25 peptide was further supported by analytical size exclusion chromatography (SEC) analysis. It is known from crystal structures and SEC analysis that the NTF2-like domains of rat and human G3BP form homo-dimers. G3BP-NTF2 alone was eluted with an apparent molecular weight of 30 kDa, slightly lower than the calculated molecular weight of the dimer (36 kDa), while pre-incubation of G3BP with a ten-fold molar excess of nsP3-25 peptide shifted the elution peak, corresponding to the formation of a 60 kDa complex (Fig. 4E). […] There was no evidence for higher-order oligomers.
Before analysis, 40 μM G3BP-NTF2 and 400 μM nsP3-25 were mixed and incubated for 1h in SEC-buffer (25 mM HEPES, 300 mM NaCl, 5 mM MgCl2, 10% glycerol, pH 7). A sample volume of 100 μL was injected onto the Superdex 75 10/300 GL column equilibrated in SEC-buffer. G3BP-NTF2 alone was used a control. The apparent molecular weights of the eluted proteins were calculated from their retention volumes as described in the gel filtration LMW/HMW calibration kits assuming similar globular shapes for the analyzed proteins and calibration standards (GE Healthcare).

Substance: G3BP-NTF2: purified NTF2-like domain of human G3BP-1, expressed in E. coli
- retention volume (SEC): 11.3 mL
- apparent molecular weight of eluted G3BP-NTF2 (Superdex 75 10/300 GL, 25 mM HEPES, 300 mM NaCl, 5 mM MgCl2, 10% glycerol): 30 kDa
